Test results as given in patent US20160166676A1 (priority 2013, published 2016).

Tested on: CTLL-2 cells
Assay: CTLL-2 proliferation assay (immunosuppression by monomeric and dimeric peptides)
Format: cell-based
Conditions: FIG. 2; Flavi virus derived peptides, two independent experiments

Question: With DRGWGNGCGLFGKG as the sequence, how does the “proliferation of CTLL-2 cells” value read?
Answer: The value was “significant inhibition of proliferation of CTLL-2 cells”.
